Pooled drug test results. Numbers come from NIAID ChemDB, via PubChem.

Common to all: growth or infection tests; organism: Mycobacterium avium complex; measure: MIC

Blank or dashed fields: not listed here.

{"smiles": "NC[C@H]1O[C@H](O[C@H]2[C@H](O)[C@@H](O[C@H]3O[C@H](CO)[C@@H](O)[C@H](N)[C@H]3O)[C@H](N)C[C@@H]2N)[C@H](O)[C@@H](O)[C@@H]1O", "strain or isolate": "Isolate C-39", "value": "100 µg/mL"}
{"smiles": "c1ccc(CCSc2nc3ccccc3[nH]2)cc1", "strain or isolate": "MY330/88", "value": ">62 µM"}
{"smiles": "CO/N=C(/C(=O)N[C@@H]1C(=O)N2C(C(=O)O)=C(COC(N)=O)CS[C@H]12)c1ccco1", "strain or isolate": "31 strains", "value": "32 µg/mL"}
{"smiles": "NC[C@H]1O[C@H](O[C@H]2[C@H](O)[C@@H](O[C@H]3O[C@H](CO)[C@@H](O)[C@H](N)[C@H]3O)[C@H](N)C[C@@H]2N)[C@H](O)[C@@H](O)[C@@H]1O", "strain or isolate": "N-314 (HIV-)", "value": "4 µg/mL"}
{"smiles": "CCCCCSc1nc2ccccc2[nH]1", "strain or isolate": "MY330/88", "value": "62 µM"}
{"smiles": "Cc1c(CN2CCN(C)CC2)cc(-c2ccc(Cl)cc2)n1Cc1ccccc1", "strain or isolate": "103317", "value": "8 µg/mL"}
{"smiles": "O=C(NO)c1cc(Br)ccc1O", "strain or isolate": "32 isolates", "value": "10 µg/mL"}
{"smiles": "NC[C@@H]1O[C@H](O[C@H]2[C@@H](O)[C@H](O[C@@H]3[C@@H](O)[C@H](N)C[C@H](N)[C@H]3O[C@H]3O[C@H](CO)[C@@H](O)[C@H](O)[C@H]3N)O[C@@H]2CO)[C@H](N)[C@@H](O)[C@@H]1O", "strain or isolate": "Isolate 53", "value": "12.5 µg/mL"}
{"smiles": "CCC[C@@H]1C[C@@H](C(=O)N[C@@H]([C@H]2O[C@H](SC)[C@H](O)[C@@H](O)[C@H]2O)[C@H](C)Cl)N(C)C1", "strain or isolate": "31 strains", "value": "4 µg/mL"}
{"smiles": "CC[C@@H](CO)NCCN[C@@H](CC)CO", "strain or isolate": "13034 (serotype 18)", "value": "6.25 µg/mL"}
{"smiles": "CCCCCCn1c(C)ccc1-c1ccc(Cl)cc1", "strain or isolate": "103317", "value": ">16 µg/mL"}
{"smiles": "CC1COc2c(N3CCN(C)CC3)c(F)cc3c(=O)c(C(=O)O)cn1c23", "strain or isolate": "CIPT 14031006", "value": "<1 µg/mL"}
{"smiles": "CC(C)N=c1cc2n(-c3ccc(Cl)cc3)c3ccccc3nc-2cc1Nc1ccc(Cl)cc1", "strain or isolate": "SK47/HIV+", "value": "1 µg/mL"}
{"smiles": "CCS(=O)(=O)c1ccc(/C=N\\NC(N)=S)cc1", "strain or isolate": "32 isolates", "value": "5 µg/mL"}
{"smiles": "CC[C@@H](CO)NCCN[C@@H](CC)CO", "strain or isolate": "242-5", "value": "1.9 µg/mL"}
{"smiles": "CCn1cc(C(=O)O)c(=O)c2cc(F)c(N3CCNCC3)cc21", "strain or isolate": "CIPT 14031002", "value": ">40 µg/mL"}
{"smiles": "NC1CCCCN(c2c(F)cc3c(=O)c(C(=O)O)cn(C4CC4)c3c2F)C1=O", "strain or isolate": "1915112", "value": "32 µg/mL"}
{"smiles": "CC[C@@H](CO)NCCN[C@@H](CC)CO", "strain or isolate": "MO-1", "value": "16 µg/mL"}
{"smiles": "NNC(=O)c1ccncc1", "strain or isolate": "1171", "value": "4 µg/mL"}
{"smiles": "Brc1cccc(CSc2nc3ccccc3[nH]2)c1", "strain or isolate": "MY330/88", "value": ">62 µM"}
{"smiles": "CN(C)C1CCN(c2c(F)cc3c(=O)c(C(=O)O)cn(C4CC4)c3c2F)C1", "strain or isolate": "1988557", "value": "0.5 µg/mL"}
{"smiles": "CC[C@H]1OC(=O)[C@H](C)[C@@H](O[C@H]2C[C@@](C)(OC)[C@@H](O)[C@H](C)O2)[C@H](C)[C@@H](O[C@@H]2O[C@H](C)C[C@H](N(C)C)[C@H]2O)[C@](C)(OC)C[C@@H](C)C(=O)[C@H](C)[C@@H](O)[C@]1(C)O", "strain or isolate": "MO-1", "value": "1 µg/mL"}
{"smiles": "CO[C@H]1/C=C/O[C@@]2(C)Oc3c(C)c(O)c4c(O)c(c(/C=N/N5CCN(C)CC5)c(O)c4c3C2=O)NC(=O)/C(C)=C\\C=C\\[C@H](C)[C@H](O)[C@@H](C)[C@@H](O)[C@@H](C)[C@H](OC(C)=O)[C@@H]1C", "strain or isolate": "CIPT 140310005", "value": "0.1 µg/mL"}
{"smiles": "CC(C)N=c1cc2n(-c3ccc(Cl)cc3)c3ccccc3nc-2cc1Nc1ccc(Cl)cc1", "strain or isolate": "101", "value": "3 µg/mL"}
{"smiles": "Cc1ccc(C)n1C1CCCCC1", "strain or isolate": "103317", "value": ">16 µg/mL"}
{"smiles": "NCC[C@H](O)C(=O)N[C@@H]1C[C@H](N)[C@@H](O[C@H]2O[C@H](CN)[C@@H](O)[C@H](O)[C@H]2O)[C@H](O)[C@H]1O[C@H]1O[C@H](CO)[C@@H](O)[C@H](N)[C@H]1O", "strain or isolate": "969/HIV-", "value": "<2 µg/mL"}
{"smiles": "CN[C@@H]1[C@@H](O)[C@@H](O[C@@H]2[C@@H](O)[C@H](O[C@H]3O[C@H](CN)CC[C@H]3N)[C@@H](N)C[C@H]2N)OC[C@]1(C)O", "strain or isolate": "Isolate 64", "value": "12.5 µg/mL"}
{"smiles": "CO[C@H]1/C=C/O[C@@]2(C)Oc3c(C)c(O)c4c(O)c(c(/C=N/N5CCN(C6CCCC6)CC5)c(O)c4c3C2=O)NC(=O)/C(C)=C\\C=C\\[C@H](C)[C@H](O)[C@@H](C)[C@@H](O)[C@@H](C)[C@H](OC(C)=O)[C@@H]1C", "strain or isolate": "Serotype 2", "value": ">40 µg/mL"}
{"smiles": "CC1COc2c(N3CCN(C)CC3)c(F)cc3c(=O)c(C(=O)O)cn1c23", "strain or isolate": "32 isolates", "value": "2 µg/mL"}
{"smiles": "CCCCCCCCO[C@@H]1OC(C)[C@H](O[C@@H]2O[C@@H]([C@@H](COC(C)=O)OC(C)=O)[C@H](OC(C)=O)[C@H]2OC(C)=O)C(O)C1O", "strain or isolate": "NJ3404", "value": ">128 µg/mL"}
{"smiles": "NCC[C@H](O)C(=O)N[C@@H]1C[C@H](N)[C@@H](O[C@H]2O[C@H](CN)[C@@H](O)[C@H](O)[C@H]2O)[C@H](O)[C@H]1O[C@H]1O[C@H](CO)[C@@H](O)[C@H](N)[C@H]1O", "strain or isolate": "1168", "value": "20 µg/mL"}
{"smiles": "CC[C@H]1OC(=O)[C@H](C)[C@@H](O[C@H]2C[C@@](C)(OC)[C@@H](O)[C@H](C)O2)[C@H](C)[C@@H](O[C@@H]2O[C@H](C)C[C@H](N(C)C)[C@H]2O)[C@](C)(OC)C[C@@H](C)C(=O)[C@H](C)[C@@H](O)[C@]1(C)O", "strain or isolate": "3214", "value": "2 µg/mL"}
{"smiles": "O=C(NCN1CCOCC1)c1cnccn1", "strain or isolate": "32 isolates", "value": "15 µg/mL"}
{"smiles": "COc1cccc(CSc2nc3ccccc3[nH]2)c1", "strain or isolate": "MY330/88", "value": "125 µM"}
{"smiles": "C[C@@H]1CN(c2c(F)c(N)c3c(=O)c(C(=O)O)cn(C4CC4)c3c2F)C[C@H](C)N1", "strain or isolate": "3", "method": "broth dilution", "value": "1 µg/mL"}
{"smiles": "NCCC[C@H](N)CC(=O)N[C@H]1CNC(=O)[C@H]([C@H]2C[C@H](O)NC(N)=N2)NC(=O)/C(=C/NC(N)=O)NC(=O)[C@H](CO)NC(=O)[C@H](CO)NC1=O", "strain or isolate": "TMC 1411", "value": "1.56 µg/mL"}
{"smiles": "CO[C@H]1/C=C/O[C@@]2(C)Oc3c(C)c(O)c4c(O)c(c(/C=N/N5CCN(C)CC5)c(O)c4c3C2=O)NC(=O)/C(C)=C\\C=C\\[C@H](C)[C@H](O)[C@@H](C)[C@@H](O)[C@@H](C)[C@H](OC(C)=O)[C@@H]1C", "strain or isolate": "3220", "value": "8 µg/mL"}
{"smiles": "C[C@@H]1CN(c2c(F)c(N)c3c(=O)c(C(=O)O)cn(C4CC4)c3c2F)C[C@H](C)N1", "strain or isolate": "32 isolates", "value": "4 µg/mL"}
{"smiles": "CCCCCCn1c(-c2ccc(Cl)cc2)cc(CN2CCOCC2)c1C", "strain or isolate": "103317", "value": "16 µg/mL"}
{"smiles": "CN[C@@H]1[C@H](O[C@H]2[C@H](O[C@H]3[C@H](O)[C@@H](O)[C@H](N=C(N)N)[C@@H](O)[C@@H]3N=C(N)N)O[C@@H](C)[C@]2(O)C=O)O[C@@H](CO)[C@H](O)[C@H]1O", "strain or isolate": "TMC 1467", "value": "0.05 µg/mL"}
{"smiles": "NNC(=O)c1ccncc1", "strain or isolate": "13008 (serotype 20)", "value": "1.6 µg/mL"}
{"smiles": "CC(C)N=c1cc2n(-c3ccc(Cl)cc3)c3ccccc3nc-2cc1Nc1ccc(Cl)cc1", "strain or isolate": "32 isolates", "value": "2 µg/mL"}
{"smiles": "Cc1c(CN2CCN(C)CC2)c(CN2CCN(C)CC2)c(-c2ccc(Cl)cc2)n1C1CCCCC1", "strain or isolate": "103317", "value": ">64 µg/mL"}
{"smiles": "CC1COc2c(N3CCN(C)CC3)c(F)cc3c(=O)c(C(=O)O)cn1c23", "strain or isolate": "1257/HIV-", "value": "4 µg/mL"}
{"smiles": "CN(C)[C@@H]1C(=O)C(C(N)=O)=C(O)[C@@]2(O)C(=O)C3=C(O)c4c(O)cccc4[C@@](C)(O)[C@H]3C[C@@H]12", "strain or isolate": "31 strains", "value": "8 µg/mL"}
{"smiles": "FC(F)(F)c1ccc(CSc2nc3ccccc3[nH]2)cc1", "strain or isolate": "MY330/88", "value": ">32 µM"}
{"smiles": "O=C(O)c1cn(C2CC2)c2c(F)c(N3CCS(=O)(=O)CC3)c(F)cc2c1=O", "strain or isolate": "1760694", "value": "4 µg/mL"}
{"smiles": "C=CCSc1nc2ccccc2[nH]1", "strain or isolate": "MY330/88", "value": "500 µM"}
{"smiles": "NCC[C@H](O)C(=O)N[C@@H]1C[C@H](N)[C@@H](O[C@H]2O[C@H](CN)[C@@H](O)[C@H](O)[C@H]2O)[C@H](O)[C@H]1O[C@H]1O[C@H](CO)[C@@H](O)[C@H](N)[C@H]1O", "strain or isolate": "32 isolates", "value": "12 µg/mL"}
{"smiles": "CO[C@H]1/C=C/O[C@@]2(C)Oc3c(C)c(O)c4c(O)c(c(/C=N/N5CCN(C6CCCC6)CC5)c(O)c4c3C2=O)NC(=O)/C(C)=C\\C=C\\[C@H](C)[C@H](O)[C@@H](C)[C@@H](O)[C@@H](C)[C@H](OC(C)=O)[C@@H]1C", "strain or isolate": "MO-1", "value": "4 µg/mL"}
{"smiles": "O=C(O)c1cn(C2CC2)c2c(F)c(N3CCC(NC4CC4)C3)c(F)cc2c1=O", "strain or isolate": "1915112", "value": "2 µg/mL"}
{"smiles": "Clc1ccccc1C(c1ccccc1)(c1ccccc1)n1ccnc1", "strain or isolate": "LPR", "value": "0.03 µg/mL"}
{"smiles": "NC[C@H]1O[C@H](O[C@H]2[C@H](O)[C@@H](O[C@H]3O[C@H](CO)[C@@H](O)[C@H](N)[C@H]3O)[C@H](N)C[C@@H]2N)[C@H](N)C[C@@H]1O", "strain or isolate": "32 isolates", "value": "8 µg/mL"}
{"smiles": "O=[N+]([O-])c1cccc(F)c1CSc1nc2ccccc2[nH]1", "strain or isolate": "MY330/88", "value": "125 µM"}
{"smiles": "CO[C@H]1/C=C/O[C@@]2(C)Oc3c(C)c(O)c4c(O)c(c(/C=N/N5CCN(C/C=C/c6ccccc6)CC5)c(O)c4c3C2=O)NC(=O)/C(C)=C\\C=C\\[C@H](C)[C@H](O)[C@@H](C)[C@@H](O)[C@@H](C)[C@H](OC(C)=O)[C@@H]1C", "strain or isolate": "CH3", "value": "0.25 µg/mL"}
{"smiles": "CC[C@@H](CO)NCCN[C@@H](CC)CO", "strain or isolate": "3212", "value": "32 µg/mL"}
{"smiles": "O=C(O)c1cn(C2CC2)c2c(F)c(N3CCSCC3)c(F)cc2c1=O", "strain or isolate": "1172733", "value": "8 µg/mL"}
{"smiles": "CC[C@H]1OC(=O)[C@H](C)[C@@H](O[C@H]2C[C@@](C)(OC)[C@@H](O)[C@H](C)O2)[C@H](C)[C@@H](O[C@@H]2O[C@H](C)C[C@H](N(C)C)[C@H]2O)[C@](C)(OC)C[C@@H](C)C(=O)[C@H](C)[C@@H](O)[C@]1(C)O", "strain or isolate": "32 isolates", "value": "4 µg/mL"}
{"smiles": "NCC[C@H](O)C(=O)N[C@@H]1C[C@H](N)[C@@H](O[C@H]2O[C@H](CN)[C@@H](O)[C@H](O)[C@H]2O)[C@H](O)[C@H]1O[C@H]1O[C@H](CO)[C@@H](O)[C@H](N)[C@H]1O", "strain or isolate": "559/HIV+", "value": ">1.25 µg/mL"}
{"smiles": "O=C1CN(/N=C/c2ccc([N+](=O)[O-])o2)C(=O)N1", "strain or isolate": "31 strains", "value": "64 µg/mL"}
{"smiles": "CN(C)CC1CCN(c2c(F)cc3c(=O)c(C(=O)O)cn(C4CC4)c3c2F)C1", "strain or isolate": "1760694", "value": "2 µg/mL"}

4 of the rows above, restated:

smiles,strain or isolate,method,value
CN(C)CC1CCN(c2c(F)cc3c(=O)c(C(=O)O)cn(C4CC4)c3c2F)C1,1760694,,2 µg/mL
Cc1c(CN2CCN(C)CC2)c(CN2CCN(C)CC2)c(-c2ccc(Cl)cc2)n1C1CCCCC1,103317,,>64 µg/mL
O=C(O)c1cn(C2CC2)c2c(F)c(N3CCSCC3)c(F)cc2c1=O,1172733,,8 µg/mL
O=C1CN(/N=C/c2ccc([N+](=O)[O-])o2)C(=O)N1,31 strains,,64 µg/mL

Conditions beyond the fields shown may differ between rows.